{"source": "patent US20060234971A1", "about": "(priority 2005, published 2006)", "tested_on": "PrP27-30 accumulation in ScN2A cells", "test": "PrP27-30 accumulation in ScN2A cells", "details": "50 μM"}
{"compound": "CC(C)[C@H](NC(=O)OCc1ccccc1)C(=O)N[C@H](C=O)Cc1ccccc1", "note": "[MDL28170, Carbobenzoxy-valinyl-phenylalaninal]", "values": [{"measurement": "accumulation of PrP27-30", "setting": "4 days of treatment (passage 1)", "result": "reduced"}, {"measurement": "accumulation of PrP27-30", "setting": "passage 4", "result": "almost undetectable levels"}]}
